Assay results reported in PMC8880671, “Facial Synthesis and Bioevaluation of Well-Defined OEGylated Betulinic Acid-Cyclodextrin Conjugates for Inhibition of Influenza Infection” (Molecules, 2022).

Chains of the proteins cited; added tags and fusions are not shown. Residues count along the entry.
UniProt P03454, 18-565: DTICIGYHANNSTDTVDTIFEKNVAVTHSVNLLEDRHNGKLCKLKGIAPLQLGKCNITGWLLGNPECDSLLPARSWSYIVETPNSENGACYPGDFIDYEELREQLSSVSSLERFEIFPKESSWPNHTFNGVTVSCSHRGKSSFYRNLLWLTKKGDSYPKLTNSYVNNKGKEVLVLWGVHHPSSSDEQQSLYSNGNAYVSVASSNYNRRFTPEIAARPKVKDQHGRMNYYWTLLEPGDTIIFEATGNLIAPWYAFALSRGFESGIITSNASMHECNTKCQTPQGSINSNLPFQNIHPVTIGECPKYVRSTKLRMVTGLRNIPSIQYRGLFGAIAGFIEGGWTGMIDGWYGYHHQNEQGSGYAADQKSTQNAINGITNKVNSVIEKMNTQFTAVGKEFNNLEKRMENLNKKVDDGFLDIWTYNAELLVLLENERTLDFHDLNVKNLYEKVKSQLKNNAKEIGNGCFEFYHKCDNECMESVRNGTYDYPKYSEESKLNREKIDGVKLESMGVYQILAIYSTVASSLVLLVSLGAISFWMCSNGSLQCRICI

Target: influenza HA protein (Influenza A virus, UniProt P03454)
Conditions: read-out: KD for influenza HA protein; SPR, HA immobilized on CM5 chip (Figure S2)

Substance	Kd
Hexakis 6-Deoxy-6-[4-N-[(3,6,9,12,15,18-Hexaoxaheneicos-20-yn-1-yl)-3β-hydroxy-lup-20(29)-en-28-oyl]-aminomethyl-1H-1,2,3-triazol-1-yl]-α-CD [Compound 81]	> 10 µM
Octakis 6-Deoxy-6-[4-N-[(3,6,9,12,15,18-Hexaoxaheneicos-20-yn-1-yl)-3β-hydroxy-lup-20(29)-en-28-oyl]-aminomethyl-1H-1,2,3-triazol-1-yl]-γ-CD [Compound 83]	> 10 µM
